A mixed list of measured activities; the numbers were collected in NIAID ChemDB.

Common to all: whole-cell or culture tests; species: HIV-1; cell line: MT-4; endpoint: EC50

Blank or dashed fields: not listed here.

SMILES,strain or isolate,changes,read by,conditions,value
CCC(C)[C@@H](C(=O)N[C@@H](Cc1ccccc1)[C@H](O)CN(CC(C)C)S(=O)(=O)c1ccc(/C=N/O)cc1)N1CC(=O)N(Cc2cccnc2)C1=O,-,-,cytopathic effect / MTT,-,0.004 µM
Cc1nc2ccccc2c(-c2cc(F)c3c(c2C)CCCO3)c1[C@H](OC(C)(C)C)C(=O)O,NL4-3,V126I,luminescence,-,0.019 µM
C=CCOCn1c(Cc2cccc(C(F)(F)F)c2)c(C(C)C)c(=O)[nH]c1=O,N119 (Y181C),-,MTT,-,1.3 µM
CC(C)CN(C[C@@H](O)[C@H](Cc1ccccc1)NC(=O)OCc1cncs1)S(=O)(=O)c1ccc2ncn(C)c2c1,LAI WT,-,cytopathic effect / MTT,-,0.1 µM
CCC(C)[C@@H](C(=O)N[C@@H](Cc1ccccc1)[C@H](O)CN(CC1CCCC1)S(=O)(=O)c1ccc(/C=N/O)cc1)N1CCN(Cc2cccc(C)n2)C1=O,-,-,cytopathic effect / MTT,50% human serum,0.004 µM
CCOCn1c(Cc2cccc(F)c2)c(CC)c(=O)[nH]c1=O,N119 (Y181C),-,MTT,-,18 µM
CC1(C)CC=C(c2cn(-c3nccc(C(=O)NC4CCC(N5CC6CCC(C5)O6)CC4)n3)c3ccc(F)c([C@H](OC(C)(C)C)C(=O)O)c23)CC1,NL4-3,K173R,luminescence,-,0.006 µM
CCC(C)[C@@H](C(=O)N[C@@H](Cc1ccccc1)[C@H](O)CN(CC(C)C)S(=O)(=O)c1ccc(/C=N/O)cc1)N1CC(=O)N(Cc2ccncc2)C1=O,-,-,cytopathic effect / MTT,-,0.005 µM
CCOCn1c(Cc2cc(F)ccc2F)c(CC)c(=O)[nH]c1=O,A17,K103N + Y181C,MTT,-,50 µM
Cc1cc([N+](=O)[O-])cc(C)c1OCC(=O)N[C@@H](Cc1ccccc1)[C@H](O)CN(CC(C)C)S(=O)(=O)c1ccc2c(c1)ncn2CCN(C)C,LAI WT,-,cytopathic effect / MTT,-,1.995 µM
Cc1ccc(CN2CCN([C@H](C(=O)N[C@@H](Cc3ccccc3)[C@H](O)CN(CC(C)C)S(=O)(=O)c3ccc(/C=N/O)cc3)C(C)(C)C)C2=O)cn1,-,-,cytopathic effect / MTT,-,0.001 µM
CCOCn1c(Cc2c(F)c(F)cc(F)c2F)c(CC)c(=O)[nH]c1=O,A17,K103N + Y181C,MTT,-,54 µM
COP(=O)(c1cc(C)cc(CCC#N)c1)c1c(C(N)=O)[nH]c2ccc(Cl)cc12,BH10,Y181C,cytopathic effect,-,0.0015 µM
Cc1c(N)cccc1C(=O)N[C@@H](Cc1ccccc1)[C@H](O)CN(CC(C)C)S(=O)(=O)c1ccc2nc[nH]c2c1,LAI WT,-,cytopathic effect / MTT,-,0.398 µM
CCOCn1c(Cc2c(F)ccc(F)c2F)c(CC)c(=O)[nH]c1=O,A17,K103N + Y181C,MTT,-,87 µM
CCC(C)[C@@H](C(=O)N[C@@H](Cc1ccccc1)[C@H](O)CN(CC1CCCC1)S(=O)(=O)c1ccc(/C=N/O)cc1)N1CCN(Cc2cnccc2C)C1=O,-,-,cytopathic effect / MTT,-,0.001 µM
COC(=O)Nc1nc2ccc(S(=O)(=O)N(CC(C)C)C[C@@H](O)[C@H](Cc3ccccc3)NC(=O)COc3c(C)cccc3C)cc2[nH]1,LAI WT,-,cytopathic effect / MTT,-,0.003 µM

For reference, 2 entries again:

CC1(C)CC=C(c2cn(-c3nccc(C(=O)NC4CCC(N5CC6CCC(C5)O6)CC4)n3)c3ccc(F)c([C@H](OC(C)(C)C)C(=O)O)c23)CC1 ; strain or isolate: NL4-3 ; changes: K173R ; read by: luminescence ; value: 0.006 µM
CCOCn1c(Cc2c(F)c(F)cc(F)c2F)c(CC)c(=O)[nH]c1=O ; strain or isolate: A17 ; changes: K103N + Y181C ; read by: MTT ; value: 54 µM

Neighbouring rows are from separate reports. ECn: concentration that inhibits the pathogen or its effect by n%.